Compound potency records, mixed from different reports. Data source: NIAID ChemDB in PubChem.

Common to all: growth or infection tests; agent: HIV-1; read by: cytopathic effect / MTT; measure: EC50

ECn: concentration that inhibits the pathogen or its effect by n%.

compound	strain	changes	cells	value
COc1c(-c2ccc(O)c(O)c2)oc2c(CC=C(C)C)c(O)c(CC=C(C)C)c(O)c2c1=O	IIIB	-	MT-4	>200 µg/mL
CCOC(=O)CNS(=O)(=O)c1cc(Cl)ccc1[N+](=O)[O-]	-	-	MT-4	73 µM
Cc1cn([C@H]2C=C[C@@H](COC(=O)NCCSC(=O)OC[C@@H]3C=C[C@H](n4cc(C)c(=O)[nH]c4=O)O3)O2)c(=O)[nH]c1=O	WT	-	MT-4	45 µM
CC(C)c1c(COC(N)=O)cn(Cc2ccncc2)c1Sc1ccccc1	IIIB	-	MT-4	0.7 µM
COCOc1cc(OCC=C(C)C)c2c(=O)c(OCOC)c(-c3ccc(OCOC)c(OCOC)c3)oc2c1	IIIB	-	MT-4	66.7 µg/mL
CC(C)c1c(COC(N)=O)cn(Cc2ccncc2)c1Sc1cc(Cl)cc(Cl)c1	IIIB	-	MT-4	0.12 µM
CC(C)=CCc1c(O)ccc(C(=O)/C=C/c2cc(O)c3c(c2)C=CC(C)(C)O3)c1O	IIIB	-	MT-4	>20 µg/mL
CC(C)(C)NC(=O)[C@@H]1CN(Cc2cccnc2)CCN1C[C@H](C[C@@H](Cc1ccccc1)C(=O)N[C@H]1c2ccccc2C[C@H]1O)OC(=O)CCC(=O)O[C@H]1[C@@H](C2COC(C)(C)O2)OC2OC(C)(C)O[C@H]21	IIIB	-	MT-4	0.56 µM
CC(C)=CCN1C(C)Cn2c(=O)[nH]c3cc(Cl)cc(c32)S1(=O)=O	-	-	MT-4	100 µM
CC(C)(C)NC(=O)[C@@H]1CN(Cc2cccnc2)CCN1C[C@@H](O)C[C@@H](Cc1ccccc1)C(=O)N[C@H]1c2ccccc2C[C@H]1OC(=O)CCCCO[C@@H]1[C@@H](O)[C@@H](O)O[C@H](CO)[C@H]1O	IIIB	-	MT-4	0.19 µM
CC(C)CN(C[C@@H](O)[C@H](Cc1ccccc1)NC(=O)O[C@H]1CCOC1)S(=O)(=O)c1ccc(N)cc1	GAG-L75 H219Q V390 APV-resistant	Gag H219Q R409K L449F E468K PR L10F V32I M46I I54M A71V I84V	MT-2	>2.5 µM
O=c1[nH]cnc2c1ncn2[C@H]1CC[C@@H](CO)O1	IIIB	-	MT-4	2.17 µg/mL
CCOC(=O)CN(CC)S(=O)(=O)c1cc(Cl)ccc1[N+](=O)[O-]	-	-	MT-4	>200 µM
O=c1[nH]cnc2c1ncn2[C@H]1CC[C@@H](CO)O1	NNRTI-resistant (RT Y181C)	RT-Y181C	MT-4	3 µM
Cc1ccnc2c1NC(=O)c1cccnc1N2C1CC1	-	RT-K103N K100I	MT-4	>10 µM
CC(C)(C)NC(=O)[C@@H]1CN(Cc2cccnc2)CCN1C[C@H](C[C@@H](Cc1ccccc1)C(=O)N[C@H]1c2ccccc2C[C@H]1O)OC(=O)CCCCNC(=O)O[C@H]1[C@@H](C2COC(C)(C)O2)OC2OC(C)(C)O[C@H]21.O=C(O)C(F)(F)F.O=C(O)C(F)(F)F	LAI	-	CEM + CEM-SS	52 µM
CC(=O)O[C@@]12C[C@@H](C)[C@@]3(O)[C@@H](C=C(CO)C[C@]4(O)C(=O)C(C)=C[C@@H]34)[C@@H]1C2(C)C	NL4-3	-	MT-4	0.16 µg/mL
CC(C)=CCc1c(O)cc(O)c(CC=C(C)C)c1CCc1ccc(O)c(O)c1	IIIB	-	MT-4	>20 µg/mL
Cc1cn([C@H]2C[C@H](N=[N+]=[N-])[C@@H](CO)O2)c(=O)[nH]c1=O	NL4-3	-	MT-4	0.01 µM
OCc1cn(Cc2ccncc2)c(Sc2ccccc2)c1-c1ccccc1	IIIB	-	MT-4	5 µM
Cc1cn([C@H]2C[C@H](N=[N+]=[N-])[C@@H](COC(=O)CCC(=O)OC[C@H]3O[C@@H]4O[C@H]5[C@H](O)[C@@H](O)[C@@H](O[C@H]6[C@H](O)[C@@H](O)[C@@H](O[C@H]7[C@H](O)[C@@H](O)[C@@H](O[C@H]8[C@H](O)[C@@H](O)[C@@H](O[C@H]9[C@H](O)[C@@H](O)[C@@H](O[C@H]%10[C@H](O)[C@@H](O)[C@@H](O[C@H]3[C@H](O)[C@H]4O)O[C@@H]%10CO)O[C@@H]9CO)O[C@@H]8CO)O[C@@H]7CO)O[C@@H]6CO)O[C@@H]5CO)O2)c(=O)[nH]c1=O	IIIB	-	MT-4	0.014 µg/mL
COc1cc2c(cc1/C=C/C(=O)c1ccc(O)cc1)CC(C)(C)C(C)O2	IIIB	-	MT-4	>20 µg/mL
Cc1cn([C@H]2C[C@H](N=[N+]=[N-])[C@@H](CO)O2)c(=O)[nH]c1=O	NL4-3	-	MT-4	0.0002 µg/mL
COc1cc(O)ccc1CCCc1cc(O)c2c(c1CC=C(C)C)C=CC(C)(C)O2	IIIB	-	MT-4	>20 µg/mL
COC(=O)N[C@@H](Cc1c[nH]c2ccccc12)C(=O)NCCCC[C@@H](CO)N(CC(C)C)S(=O)(=O)c1ccc(N)cc1	NL4-3	SQV-resistant (PR G48V L90M)	MT-4	0.395 µM
NC(N)=NCCC[C@H](N)C(=O)NC[C@H]1O[C@H](O[C@H]2C(O)[C@@H](O[C@H]3O[C@H](CO)[C@@H](O)[C@H](NC(=O)[C@@H](N)CCCN=C(N)N)[C@H]3O)[C@H](NC(=O)[C@@H](N)CCCN=C(N)N)C[C@@H]2NC(=O)[C@@H](N)CCCN=C(N)N)[C@H](O)[C@@H](O)[C@@H]1O	NL4-3	-	MT-4	31 µM
CC(C)[C@H](NC(=O)N(C)Cc1ccccn1)C(=O)N[C@@H](Cc1ccccc1)[C@H](O)[C@H](O)[C@H](Cc1ccccc1)NC(=O)[C@@H](NC(=O)N(C)Cc1ccccn1)C(C)C	LAV	-	CEM	0.15 µM
CC(C)c1c(CO)cn(Cc2ccncc2)c1S(=O)(=O)c1ccccc1	IIIB	-	MT-4	2.6 µM
COCOc1ccc(/C=C/C(=O)c2c(O)cc(OCOC)cc2OCOC)c(OCOC)c1	IIIB	-	MT-4	>20 µg/mL
CC(C)(C)NC(=O)[C@@H]1CC2CCCCC2CN1C[C@@H](OC(=O)CCC(=O)O[C@H]1[C@@H](C2COC(C)(C)O2)OC2OC(C)(C)O[C@H]21)[C@H](Cc1ccccc1)NC(=O)[C@H](CC(N)=O)NC(=O)c1ccc2ccccc2n1	LAI	-	CEM + CEM-SS	0.018 µM
CC1C(=O)Nc2c([N+](=O)[O-])cc(Cl)cc2S(=O)(=O)N1CC1OC1(C)C	-	-	MT-4	>200 µM
CC(C)(C)NC(=O)[C@@H]1CN(Cc2cccnc2)CCN1C[C@@H](O)C[C@@H](Cc1ccccc1)C(=O)N[C@H]1c2ccccc2C[C@H]1O	NL4-3	PR-M46I V82T I84V 10R 63P	MT-4	0.209 µM
COCOc1ccc(-c2oc3cc(OCOC)cc(O)c3c(=O)c2OCOC)c(OCOC)c1	IIIB	-	MT-4	>200 µg/mL
CC(C)(C)NC(=O)[C@@H]1C[C@@H]2CCCC[C@@H]2CN1C[C@@H](OC(=O)CCCCO[C@@H]1[C@@H](O)[C@@H](O)O[C@H](CO)[C@H]1O)[C@H](Cc1ccccc1)NC(=O)[C@H](CC(N)=O)NC(=O)c1ccc2ccccc2n1	IIIB	-	MT-4	0.062 µM
CCc1cc(CCc2nc3ccccc3o2)c(=O)[nH]c1C	IIIB-R (RT-Y181C)	RT-Y181C	MT-4	>188 µM
C=C(C)CN1C(C)C(=S)Nc2ccc(Cl)cc2S1(=O)=O	-	-	MT-4	>47 µM
Cc1cn([C@H]2C[C@H](N=[N+]=[N-])[C@@H](CO)O2)c(=O)[nH]c1=O	IIIB	-	MT-4	0.0033 µM
COc1cc(O)ccc1/C=C/C(=O)c1ccc(O)cc1	IIIB	-	MT-4	>20 µg/mL
CC(C)=CCN1Cc2cc(Cl)cc3[nH]c(=S)n(c23)C[C@@H]1C	-	-	MT-4	0.03 µM
c1cc(CN2CCCNCCNCCCNCC2)ccc1CN1CCCNCCNCCCNCC1	NL4-3	-	MT-4	0.004 µg/mL

The first 3 rows once more:

compound,strain,changes,cells,value
COc1c(-c2ccc(O)c(O)c2)oc2c(CC=C(C)C)c(O)c(CC=C(C)C)c(O)c2c1=O,IIIB,-,MT-4,>200 µg/mL
CCOC(=O)CNS(=O)(=O)c1cc(Cl)ccc1[N+](=O)[O-],-,-,MT-4,73 µM
Cc1cn([C@H]2C=C[C@@H](COC(=O)NCCSC(=O)OC[C@@H]3C=C[C@H](n4cc(C)c(=O)[nH]c4=O)O3)O2)c(=O)[nH]c1=O,WT,-,MT-4,45 µM

Neighbouring rows are from separate reports. Blank or dashed fields: not listed here.